Measured values reported in paper PMC12345137 (mBio, 2025).
Some peptides are written in HELM: one residue between dots, names in brackets for other building blocks, links after the first $.

Test: general procedure: Fmoc solid-phase peptide synthesis; MeDbz-Gly-ChemMatrix resin; Cl-Trt polystyrene resin preloaded with Fmoc-Phe-OH (0.69 mmol/g) for peptide 8; HBTU, i-Pr2NEt
Details: whole synthesis

Substance	final HPLC purity (UPLC 215 nm)	final HPLC purity (215 nm)
PEPTIDE1{K.Y.Y.P.C.W.G.Y.F}$PEPTIDE1,PEPTIDE1,5:R3-9:R2$$$V2.0	>95%	–
S. simulans AIP- II/III 5- mer N-Ac	–	>95%
S. simulans AIP- II/III 5- mer N-Me2	–	>95%
